Experimental data: PubChem BioAssay AID624099 (ICCB-Longwood, 2012)

Aim: 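Human genes that papillomavirus E2 requires to repress the HPV18 LCR promoter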 (primary screen)
Cells: human C33A cervical carcinoma cells (HPV-negative) stably expressing BPV1 E2 and an HPV18 LCR luciferase reporter
Reagent: siRNA pool against human genes, 40 nM
Timing: 72 h
Read-out: 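Per-well luciferase luminescence, z-scored on each plate against the plate mean and SD with control wells left out, then averaged across three replicate plates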
Direction: mean z-score and z-score: higher = stronger reporter signal, weaker E2 silencing
Call rule: 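Mean z ≥ 2 together with z ≥ 2 in two or more of the three replicates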
In all, the deposit lists about 21,000 reagents; this is a random part of them. In the full data, 497 (2.4%) got an active call. 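Higher z means weaker E2 silencing; only reporter increases were scored, and knock-downs that hurt cell survival may mask genuine repressor factors.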 Unmarked entries are inactive.

HINT2 (histidine triad nucleotide binding protein 2)
- mean z-score: 0.5
- z-score, replicate A: 0.52
- z-score, replicate B: 0.54
- z-score, replicate C: 0.43

PRSS22 (serine protease 22)
- mean z-score: 0.57
- z-score, replicate A: 0.72
- z-score, replicate B: 0.55
- z-score, replicate C: 0.43

ZNF630 (zinc finger protein 630)
- mean z-score: 0.03
- z-score, replicate A: 0.14
- z-score, replicate B: -0.04
- z-score, replicate C: -0.02

CFAP20 (cilia and flagella associated protein 20)
- mean z-score: 0.17
- z-score, replicate A: 0.45
- z-score, replicate B: 0.14
- z-score, replicate C: -0.1

GRAMD2A (GRAM domain containing 2A)
- mean z-score: -0.7
- z-score, replicate A: -0.87
- z-score, replicate B: -0.9
- z-score, replicate C: -0.32

APLF (aprataxin and PNKP like factor)
- mean z-score: -1.1
- z-score, replicate A: -0.94
- z-score, replicate B: -1.31
- z-score, replicate C: -1.06

FADD (Fas associated via death domain)
- mean z-score: -1.12
- z-score, replicate A: -1.13
- z-score, replicate B: -1.09
- z-score, replicate C: -1.14

TPM3P4 (tropomyosin 3 pseudogene 4)
- mean z-score: 0.26
- z-score, replicate A: 0.2
- z-score, replicate B: 0.18
- z-score, replicate C: 0.41

PMEPA1 (prostate transmembrane protein, androgen induced 1)
- mean z-score: -0.7
- z-score, replicate A: -0.94
- z-score, replicate B: -0.73
- z-score, replicate C: -0.43

EPS8L2 (EPS8 signaling adaptor L2)
- mean z-score: 0.18
- z-score, replicate A: -0.09
- z-score, replicate B: 0.26
- z-score, replicate C: 0.38

SGF29P1 (SGF29 pseudogene 1)
- mean z-score: -1.6
- z-score, replicate A: -1.71
- z-score, replicate B: -1.66
- z-score, replicate C: -1.44

ZFAND2A (zinc finger AN1-type containing 2A)
- mean z-score: 0.03
- z-score, replicate A: 0.45
- z-score, replicate B: -0.34
- z-score, replicate C: -0.03

ZNF419 (zinc finger protein 419)
- mean z-score: 0.78
- z-score, replicate A: 1.06
- z-score, replicate B: 0.81
- z-score, replicate C: 0.48

Look-ups from above.
SGF29P1 (SGF29 pseudogene 1), z-score, replicate B → -1.66
TPM3P4 (tropomyosin 3 pseudogene 4), mean z-score = 0.26
Result for CFAP20 (cilia and flagella associated protein 20) under “z-score, replicate C”: -0.1

Next entries:
TIPARP (TCDD inducible poly(ADP-ribose) polymerase)
- mean z-score: -0.29
- z-score, replicate A: -0.23
- z-score, replicate B: -0.05
- z-score, replicate C: -0.6

DECR1 (2,4-dienoyl-CoA reductase 1)
- mean z-score: 0
- z-score, replicate A: -0.15
- z-score, replicate B: 0.14
- z-score, replicate C: 0.02

NEFM (neurofilament medium chain)
- mean z-score: -0.49
- z-score, replicate A: -0.5
- z-score, replicate B: -0.53
- z-score, replicate C: -0.43

GUCA1B (guanylate cyclase activator 1B)
- mean z-score: 0.82
- z-score, replicate A: 1.01
- z-score, replicate B: 0.72
- z-score, replicate C: 0.72

DHCR24 (24-dehydrocholesterol reductase)
- mean z-score: 1.05
- z-score, replicate A: 0.86
- z-score, replicate B: 1.15
- z-score, replicate C: 1.15

ZNF366 (zinc finger protein 366)
- mean z-score: 1.11
- z-score, replicate A: 1.35
- z-score, replicate B: 0.97
- z-score, replicate C: 1.02

OR52E8 (olfactory receptor family 52 subfamily E member 8)
- mean z-score: 1.11
- z-score, replicate A: 1.17
- z-score, replicate B: 0.63
- z-score, replicate C: 1.52

ZNF780A (zinc finger protein 780A)
- mean z-score: -0.86
- z-score, replicate A: -0.64
- z-score, replicate B: -0.8
- z-score, replicate C: -1.13
